From PMC9239164 come the findings set out here.

For this series, the target named is T1, MBP-IE2 DBD (UniProt Q6SWP7).
T1 sequence (looked up): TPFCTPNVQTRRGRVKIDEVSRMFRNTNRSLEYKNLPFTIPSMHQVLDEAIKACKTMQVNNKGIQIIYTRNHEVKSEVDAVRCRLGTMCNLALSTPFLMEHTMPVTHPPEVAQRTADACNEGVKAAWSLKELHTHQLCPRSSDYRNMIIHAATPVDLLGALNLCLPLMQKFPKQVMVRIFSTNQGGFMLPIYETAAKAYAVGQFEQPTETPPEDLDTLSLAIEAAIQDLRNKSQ
The series is described as follows: EMSA (silver stain, native PAGE). The following applies: 300 nM DBD, probe titrated 2.5-7500 nM; 25 mM HEPES pH 7.8, 100 mM NaCl, 0.01% Triton X-100, 1 mM DTT, room temperature 10 min; 4% native PAGE in 0.5x Tris-glycine; recombinant protein; residues 346-579; protein details: N-terminal MBP-linker-TEV site, C-terminal 6xHis; label: none (silver stain). A general note: In EMSA bound probe runs differently from free probe, usually more slowly.

Construct, isoform or probe ends are uncertain for at least one entry. Where a protein sequence is shown, tags need not be part of it.

For “GTCCGGTTTGCAAACCGTAG (double strand) [ideal palindromic IE2 site probe]”, the binding result was “binds”.
